Experimental data: PubChem BioAssay AID504761 (Drosophila RNAi Screening Center, 2011)

Purpose: 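Insect host genes that dengue virus relies on to spread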 (primary screen)
System: D.Mel-2 cells from Drosophila
Reagent: long dsRNA against Drosophila genes
Challenge: infection with dengue virus type 2; dose and infection time not stated
Detection: 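Cells stained for dengue envelope protein and imaged; percent of infected cells per well on duplicate plates, ranked by infection, with stained nuclei counted for cell number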
Direction: infection score: higher = more virus-infected cells; cell count: higher = more cells in the well
Rule for the call: 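Low infection ranks in the two replicates (chance level up to 0.065) followed by a retest with a 1.5-fold or larger significant decrease, p below 0.05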
Meaning of the calls: active = confirmed: knock-down lowers infection; inactive = not picked or not confirmed
The screen tested about 22,000 reagents; shown is a random part of those with a known target gene and a result. Of all reagents, 116 (0.52%) were called active. 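Calls depend on retest data that are not deposited; infection was ranked per plate without normalising between plates; the unit of the infection score is not given.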 Raw values vary from plate to plate and are shown uncorrected. Entries without a mark were called inactive. The numbers tell different reagents against one gene apart. Names joined by + are all predicted targets of the reagent. Further read-outs or replicates are left out here. The record does not give: the amount of reagent, the time to read-out.

no.	gene knocked down	reagent	infection score, replicate 1	infection score, replicate 2	cell count, replicate 1
1	Cisd2	1	8.74	2.82	6636
2	CG32137	1	5.33	4.19	6174
3	kud	1	2.05	3.12	6597
4	Klc	1	8.16	14.1	5783
5	Klc	2	9.87	9.45	4520
6	CG41520	1	9.49	9.02	4163
7	Fas3	1		24.3	530
8	Fas3	2	3.16	28.6	6294
9	Fas3	3	6.23		1059
10	Drep1	1	7.98	8.46	6701
11	CG43078	1	3.54	6.73	6496
12	CG43078	2	10.7	7.54	6693
13	CG43078	3	3.81	2.69	5693
14	CG43078	4	1.48	3.61	5996
15	CG43078	5	20.2	12	5462
16	CG42306 + Gint3	1	4.75	4.05	6057
17	CG42306 + Gint3	2	10.6	5.72	5766
18	CG10089	1	0.63	0.54	6680
19	CG10089	2	5.88	2.11	6238
20	CAH9	1	4.71	0.85	6799
21	CAH9	2			291
22	IP3K2	1	16.6	17.1	6089
23	IP3K2	2	3.45	4.85	6240
24	IP3K2	3	1.38	4.91	6395
25	IP3K2	4	6.99	7.93	5597
26	IP3K2	5	27.1	22	5443
27	Acp95EF	1	7.13	5.14	6259
28	CG9106	1	7.34	1.15	6719
29	CG9106	2	3.11	4.55	6406
30	CG14260	1	1.56	7.05	6619
31	firl	1	5.44	3.83	6674
32	DIP-gamma	1	1.14 (active)	0.89	6031
33	Hus1-like	1	4.8	9.14	6307
34	CG13039	1	13.8	2.11	5191
35	Cpr100A	1	2.57	3.27	6142
36	Cpr100A	2	10.6	19.6	5867
37	RpS27	1	4.31	8.89	5038
38	RpS27	2	18.5	7.49	2653
39	Cyp6a19	1	1.56 (active)	2.64	6166
40	etaTry	1	9.75	3.06	5949
41	etaTry	2	15.9	20.3	5551
42	CG14096	1	8.74	15.8	6601
43	CG32523	1	2.35	0.3	6292
44	Smg6	1	5.97	3.65	5830
45	Smg6	2	5.11	5.26	6403
46	kay	1	6.64	3.3	6518
47	kay	2	1.5	7.95	5348
48	CG14391	1	4.42	5.06	6238
49	CG14391	2	17.6	12	4317
50	Dhc36C	1	0.67 (active)	0.94	6700
51	CG5026	1	0.95	0.25	525
52	CG7362	1	1.83	5.85	5694
53	CG7362	2	21.4	14.3	5895
54	CG9109	1	3.58	6.38	5727
55	CG9109	2	1.72	1.48	6380
56	Srp14	1	7.79	5.92	6254
57	sip2	1	6.04		1408
58	CG14691	1	3.29	26.7	6530
59	CG14691	2	13.9	2.11	5914

A portion of the results above, as a working copy:
no.	gene knocked down	reagent	infection score, replicate 1	infection score, replicate 2	cell count, replicate 1
22	IP3K2	1	16.6	17.1	6089
23	IP3K2	2	3.45	4.85	6240
24	IP3K2	3	1.38	4.91	6395
25	IP3K2	4	6.99	7.93	5597
26	IP3K2	5	27.1	22	5443
27	Acp95EF	1	7.13	5.14	6259
28	CG9106	1	7.34	1.15	6719
